Data as given in PubChem BioAssay AID1259414 (Drosophila RNAi Screening Center, 2018).
Screen: 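Host factors increasing or decreasing Wolbachia levels in cultured fly cells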 (primary screen). Cells: Drosophila JW18 cells infected with Wolbachia. Reagent: long dsRNA against Drosophila genes, 0.25 µg dsRNA per well of a 384-well plate. Time to read-out: 5 days. Conditions: cells persistently infected with Wolbachia before knock-down; no added drug. Measured: 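Automated imaging of bacterial rRNA staining divided by host cell count, reported as plate-normalised robust z-score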. Scale: Wolbachia per cell robust z: higher = more Wolbachia per host cell than the plate typical. Active means: 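Active if absolute robust z reaches 1.5 in two or more of three replicates, leaving out multi- or no-target dsRNAs, genes unexpressed in JW18 and A1 wells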.
In all, the deposit lists about 24,000 reagents; below is a random part of those with a known target gene and a result. Of all reagents, about 1,210 (5%) were called active. 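Inactive calls also include excluded dsRNAs with several or no targets, genes unexpressed in JW18, and well A1, regardless of score.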 The numbers tell different reagents against one gene apart. Names joined by + are all predicted targets of the reagent. No sequences are given here.

After knock-down of KFase (Kynurenine formamidase) #1, the record shows Wolbachia per cell robust z, rep 1 = -0.5; Wolbachia per cell robust z, rep 2 = 0.6; Wolbachia per cell robust z, rep 3 = -1.89; inactive. KFase (Kynurenine formamidase) #2 showed Wolbachia per cell robust z, rep 1 = -1.41; Wolbachia per cell robust z, rep 2 = 0.261; Wolbachia per cell robust z, rep 3 = -0.307; inactive. Knock-down of udd (under-developed) came out at: Wolbachia per cell robust z, rep 1 = -2.32; Wolbachia per cell robust z, rep 2 = -0.368; Wolbachia per cell robust z, rep 3 = -1.86; active. With knock-down of CG13021 the results were Wolbachia per cell robust z, rep 1 = 0.0104; Wolbachia per cell robust z, rep 2 = -0.282; Wolbachia per cell robust z, rep 3 = -0.656; inactive. Against ppk (pickpocket) #1, the entry reads Wolbachia per cell robust z, rep 1 = 0.301; Wolbachia per cell robust z, rep 2 = 1.36; Wolbachia per cell robust z, rep 3 = 1.08; inactive. After knock-down of ppk (pickpocket) #2 the results were Wolbachia per cell robust z, rep 1 = -1.3; Wolbachia per cell robust z, rep 2 = -2.18; Wolbachia per cell robust z, rep 3 = 0.883; inactive.

CG30192 gave Wolbachia per cell robust z, rep 1 = -1.45; Wolbachia per cell robust z, rep 2 = -1.09; Wolbachia per cell robust z, rep 3 = -0.585; inactive. mmy (mummy) showed Wolbachia per cell robust z, rep 1 = -0.397; Wolbachia per cell robust z, rep 2 = 0.465; Wolbachia per cell robust z, rep 3 = -2.66; inactive. With knock-down of CG34170, the record shows Wolbachia per cell robust z, rep 1 = 0.675; Wolbachia per cell robust z, rep 2 = -0.239; Wolbachia per cell robust z, rep 3 = 0.843; inactive. For CG33914, the entry reads Wolbachia per cell robust z, rep 1 = -0.666; Wolbachia per cell robust z, rep 2 = 0.669; Wolbachia per cell robust z, rep 3 = 1.27; inactive. After knock-down of CR33222 + CR11386 #1 the results were Wolbachia per cell robust z, rep 1 = 0.4; Wolbachia per cell robust z, rep 2 = -0.157; Wolbachia per cell robust z, rep 3 = -2.1; inactive. Against CR33222 + CR11386 #2 the deposit lists Wolbachia per cell robust z, rep 1 = 0.615; Wolbachia per cell robust z, rep 2 = 0.0356; Wolbachia per cell robust z, rep 3 = 0.595; inactive.

Fem-1 #1 scored Wolbachia per cell robust z, rep 1 = 0.241; Wolbachia per cell robust z, rep 2 = -1.5; Wolbachia per cell robust z, rep 3 = -0.104; inactive. With knock-down of Fem-1 #2, the screen gave Wolbachia per cell robust z, rep 1 = -0.211; Wolbachia per cell robust z, rep 2 = 0.2; Wolbachia per cell robust z, rep 3 = -0.755; inactive. Prosalpha4T2 (Proteasome alpha4 subunit, Testis-specific 2) #1 gave Wolbachia per cell robust z, rep 1 = 1.14; Wolbachia per cell robust z, rep 2 = 0.191; Wolbachia per cell robust z, rep 3 = 0.462; inactive. Prosalpha4T2 (Proteasome alpha4 subunit, Testis-specific 2) #2 showed Wolbachia per cell robust z, rep 1 = 0.618; Wolbachia per cell robust z, rep 2 = 1.64; Wolbachia per cell robust z, rep 3 = 0.229; inactive. Prosalpha4T2 (Proteasome alpha4 subunit, Testis-specific 2) #3 gave Wolbachia per cell robust z, rep 1 = -0.526; Wolbachia per cell robust z, rep 2 = -0.323; Wolbachia per cell robust z, rep 3 = 0.541; inactive. Against Pym (Partner of Y14 and Mago), the entry reads Wolbachia per cell robust z, rep 1 = 0.261; Wolbachia per cell robust z, rep 2 = 0.353; Wolbachia per cell robust z, rep 3 = -3.46; inactive.

For Ref2 (RNA and export factor binding protein 2) the deposit lists Wolbachia per cell robust z, rep 1 = 0.0395; Wolbachia per cell robust z, rep 2 = 1.38; Wolbachia per cell robust z, rep 3 = 1.3; inactive. Knock-down of Nop56 came out at: Wolbachia per cell robust z, rep 1 = 0.834; Wolbachia per cell robust z, rep 2 = -0.493; Wolbachia per cell robust z, rep 3 = -0.488; inactive. Knock-down of CR44003 + CG44002 #1 gave: Wolbachia per cell robust z, rep 1 = -1.94; Wolbachia per cell robust z, rep 2 = -8.91; Wolbachia per cell robust z, rep 3 = -1.22; active. With knock-down of CR44003 + CG44002 #2 the results were Wolbachia per cell robust z, rep 1 = 0.054; Wolbachia per cell robust z, rep 2 = 0.518; Wolbachia per cell robust z, rep 3 = -1.64; inactive. With knock-down of CR44003 + CG44002 #3, the screen gave Wolbachia per cell robust z, rep 1 = -0.84; Wolbachia per cell robust z, rep 2 = -1.11; Wolbachia per cell robust z, rep 3 = 0.32; inactive. With knock-down of CG42795 #1 the results were Wolbachia per cell robust z, rep 1 = -0.108; Wolbachia per cell robust z, rep 2 = -0.273; Wolbachia per cell robust z, rep 3 = -0.197; inactive.

For CG42795 #2, the values are Wolbachia per cell robust z, rep 1 = -2.17; Wolbachia per cell robust z, rep 2 = 1.98; Wolbachia per cell robust z, rep 3 = -0.0464; inactive. For CG42795 #3, the values are Wolbachia per cell robust z, rep 1 = 0.901; Wolbachia per cell robust z, rep 2 = -1; Wolbachia per cell robust z, rep 3 = -0.00401; inactive. For CG42795 #4, the entry reads Wolbachia per cell robust z, rep 1 = 0.676; Wolbachia per cell robust z, rep 2 = -1.17; Wolbachia per cell robust z, rep 3 = 0.0618; inactive. After knock-down of CG42795 #5, the screen gave Wolbachia per cell robust z, rep 1 = 0.875; Wolbachia per cell robust z, rep 2 = 0.117; Wolbachia per cell robust z, rep 3 = 0.0356; inactive.
